Sequence variants of PSTVd loop 15 after infection

Reference: Wu et al. 2024, doi:10.1371/journal.ppat.1012142.

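Three N. benthamiana plants were inoculated with the whole mutant pool. Samples came from the inoculated region at 5 days, the leaf margin at 10 and upper systemic leaves at 12.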

Region: loop 15 of PSTVd (intermediate strain), upper and lower strand joined, each 5' to 3', the first 7 letters being the upper strand, closing pairs included. Wild type: GGAAACCGCUACUAC. Varied positions (N): GGAAACCGNNNNNNC.

Values are reads per thousand in the sample; higher means more abundant, 0 means not found. Each site shows the three plants. "Pool" is the share in the plasmid pool used as inoculum, on the same scale. The inoculated region was read from the minus strand, the other sites from the plus strand. IR is the inoculated region, LM the leaf margin, Sys the systemic leaves. The authors trace changes outside the varied positions to PCR and sequencing errors or to mutation in the plant; presence does not show that a variant is infectious alone. Samples held 43,870 to 66,106 reads, so the smallest values rest on one or two reads. Wild type was 33.9 per thousand in the pool and the most common sequence in every sample (inoculated region 202, 200, 159; leaf margin 724, 746, 710; systemic leaves 856, 883, 880).

sequence	pool	IR	LM	Sys
GGAAACCGUUAACUC	0.240	0.360 0.321 0.248	0.113 0.0445 0.0601	0 0.0908 0.0456
GGAAACCGCGACGCC	0.288	0.0819 0.0643 0.0952	0 0 0	0 0 0
GGAAACCGUGAUAUC	0.272	0.360 0.273 0.267	0.146 0.0891 0.180	0.0161 0.0756 0.0684
GGAAACCGUCACGCC	0.192	0.0983 0.0482 0.133	0 0.0223 0	0 0 0
GGAAACCGCCUUCCC	0.256	0.0491 0.177 0.133	0.0162 0 0	0 0 0
GGAAACCGCUAAGUC	0.240	0.0655 0.0482 0.114	0 0 0	0 0 0
GGAAACCGUGUAGCC	0.224	0.246 0.209 0.171	0 0 0.0601	0 0 0
GGAAACCGUUGCACC	0.144	0.0819 0.0643 0.0952	0.0323 0.0223 0.0401	0.0322 0 0
GGAAACCGCGCCCGC	0.256	0.147 0.0161 0.133	0.0323 0.0223 0	0 0 0
GGAAACCGGGCCUGC	0.176	0.115 0.0482 0.0571	0.0485 0 0	0 0 0
GGAAACCGGAGCUAC	0.272	0.0819 0.0643 0.0762	0 0 0.0200	0 0 0
GGAAACCGUUUCCAC	0.192	0.0491 0.0964 0.0381	0 0 0.0200	0.0161 0 0
GGAAACCGAGAAACC	0.256	0.0328 0.145 0.114	0.0162 0 0	0.0483 0.0151 0
GGAAACCGAGGUUUC	0.256	0.0491 0.0964 0.0571	0 0 0.0200	0 0 0
GGAAACCGGCCGGUC	0.240	0.0491 0.129 0.0952	0 0.0223 0	0 0 0
GGAAACCGGGGAAGC	0.192	0.0983 0.0643 0.248	0 0 0.0401	0 0 0
GGAAACCGUGUAUGC	0.256	0.164 0.225 0.190	0 0 0.0200	0.0161 0 0
GGAAACCGACAGGCC	0.144	0.0491 0.0482 0.0571	0 0.0223 0	0 0 0
GGAAACCGACGAAAC	0.288	0.0819 0.0964 0.0571	0.0162 0 0.0401	0 0 0
GGAAACCGUUCAAUC	0.192	0.246 0.289 0.209	0.146 0.0668 0.140	0.0322 0 0
GGAAACCGGAUCUGC	0.256	0.0983 0.145 0.114	0 0 0.0401	0 0 0
GGAAACCGUAAUUAC	0.160	0.524 0.546 0.628	0.162 0.0668 0.240	0.0322 0.0605 0.205
GGAAACCGGCCCUCC	0.144	0.229 0.0643 0.209	0 0.0223 0.0401	0.0161 0.0151 0
GGAAACCGAACGGUC	0.288	0.0491 0.0643 0.0762	0 0 0.0200	0 0 0
GGAAACCGGUAAAUC	0.256	0.0655 0.129 0.0381	0 0 0	0.0161 0 0
GGAAACCGCAUGCCC	0.208	0.0655 0.112 0.0952	0 0.0223 0.0401	0 0 0
GGAAACCGUACACGC	0.320	0.0819 0.0643 0.209	0.0162 0 0	0 0 0.0228
GGAAACCGUAGUGGC	0.336	0.0655 0.145 0.0571	0.0162 0 0	0 0 0.0228
GGAAACCGAUGUAGC	0.192	0.0491 0.161 0.0571	0.0323 0 0.0200	0 0 0
GGAAACCGUAUAAAC	0.160	0.0983 0.129 0.133	0 0 0	0 0 0
GGAAACCGAUACGAC	0.176	0.0655 0.0964 0.0762	0.0162 0 0.0401	0 0 0
GGAAACCGGUCGGCC	0.304	0.0164 0.0321 0.152	0.0162 0 0.0401	0 0 0
GGAAACCGACACGCC	0.192	0.147 0.0803 0.133	0 0 0.0200	0 0 0
GGAAACCGGCUUUAC	0.272	0.180 0.177 0.171	0 0 0.0200	0 0 0.0228
GGAAACCGUCGAUAC	0.144	0.131 0.193 0.400	0.113 0.111 0.160	0.0805 0.0303 0.0684
GGAAACCGUCUCAAC	0.192	0.0819 0.0482 0.0571	0 0 0	0 0 0
GGAAACCGGCGUCUC	0.112	0.0983 0.0964 0.0952	0 0 0	0 0 0
GGAAACCGAGCUUUC	0.224	0.115 0.177 0.171	0 0.0223 0	0.0483 0 0
GGAAACCGCUCCCAC	0.256	0.0491 0.0803 0.133	0.0162 0.0223 0	0 0 0.0228
GGAAACCGACACCCC	0.208	0.0328 0.0803 0.190	0 0 0.0200	0 0 0

Extract of 3 entries:

sequence,pool,IR,LM,Sys
GGAAACCGUCUCAAC,0.192,0.0819 0.0482 0.0571,0 0 0,0 0 0
GGAAACCGCAUGCCC,0.208,0.0655 0.112 0.0952,0 0.0223 0.0401,0 0 0
GGAAACCGUAAUUAC,0.160,0.524 0.546 0.628,0.162 0.0668 0.240,0.0322 0.0605 0.205